{"source": "patent US9328326B2", "about": "“Method for isolating cells” (MERCK PATENT GMBH, priority 2006, dated 2016)", "experiment": "ability of detergents, buffers, solvents and additives to dissolve food matrices (matrix lysis development)", "note": "Entries after “also recorded” stand apart in the source; their conditions may differ.", "data": [{"smiles": "CCCCCCCCCCCCOS(=O)(=O)[O-].[Na+]", "note": "[1% SDS, sodium dodecyl sulfate]", "values": [{"measurement": "lysis of food matrices", "setting": "in combination with 8 M Urea or 8 M Guanidine, listed as SDS, sulfate", "value": "good performance; also recorded: worked well"}, {"measurement": "lysis of food matrices", "setting": "used individually", "value": "insufficient lysis"}]}, {"smiles": "NC(N)=O", "note": "[8 M Urea, urea]", "values": [{"measurement": "performance in lysing food matrices", "setting": "combined with detergents", "value": "even better performance"}, {"measurement": "performance in lysing food matrices", "setting": "used alone", "value": "good performance"}]}]}
